The values below come from PubChem BioAssay AID2606 (The Scripps Research Institute Molecular Screening Center, 2010).

Amino acid sequences for entries named in this document (tags omitted).
UniProt P9WHR9, whole entry: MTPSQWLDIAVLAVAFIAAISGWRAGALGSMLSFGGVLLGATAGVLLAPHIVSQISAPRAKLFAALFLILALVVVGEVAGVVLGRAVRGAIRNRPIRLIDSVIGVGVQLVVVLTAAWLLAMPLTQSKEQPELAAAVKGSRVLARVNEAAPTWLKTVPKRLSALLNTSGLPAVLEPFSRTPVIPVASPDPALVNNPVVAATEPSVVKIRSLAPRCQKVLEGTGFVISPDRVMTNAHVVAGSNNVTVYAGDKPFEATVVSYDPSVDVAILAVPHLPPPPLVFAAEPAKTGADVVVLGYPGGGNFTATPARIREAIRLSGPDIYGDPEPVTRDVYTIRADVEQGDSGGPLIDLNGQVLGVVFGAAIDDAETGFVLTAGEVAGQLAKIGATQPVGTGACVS

The entries are a selection whose mix differs from that of the whole data set. Activity calls are given as the source filed them. Rule as the data show it: active = inhibition above about 38%; inactive = the rest.

The target of this assay is Serine protease Rv3671c (Mycobacterium tuberculosis (strain ATCC 25618 / H37Rv)) (UniProt P9WHR9). Briefly: inhibition of M. tuberculosis membrane protease Rv3671c – biochemical, fluorescence polarization, M. tuberculosis H37Rv, primary screen (AID 2606).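 Also: extracellular domain of Rv3671c used as enzyme; 0% = enzyme with DMSO and 100% = no enzyme.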 As to conditions: at 5.96 µM; active compounds read high. (In fluorescence polarisation assays a small probe gives low polarisation when free and higher when bound to something large.)
Usually inhibition stands for the relative decrease from the control value, in per cent. For `CN1CCC(Nc2ccc(Cl)cc2)CC1`, the inhibition was inactive: 6.22%.

Regarding `CCCOc1ccc(C)cc1CN(CCCl)CCCl`, the inhibition was inactive: 9.37%.

For `COc1cc(OC)cc(C(=O)NCC2(N3CCOCC3)CCCCC2)c1`, the inhibition is inactive: 0.38%.

As to `COc1cccc(C(=O)N(c2cc(C)cc(C)c2)C2CCN(C(=O)OC(C)(C)C)CC2)c1`, the inhibition was inactive: -4.66%.

With `CCC(CO)(C(=O)OC1CN2CCC1CC2)c1ccccc1` (stereo not drawn), the inhibition was inactive: 2.79%.

Regarding `O=C(O)C1(Nc2ccccc2)CCN(Cc2ccccc2)CC1`, the inhibition was inactive: -8.87%.

With `CC(C)(C)OC(=O)N1CCC(Nc2ccccc2)CC1`, the inhibition was inactive: 2.86%.

On to `CCCOc1ccc(C(=O)NCC2(N(C)C)CCCCC2)cc1`, for which the inhibition was inactive: -4.79%.

On to `CN1CCC(Nc2ccc(F)c(Cl)c2)CC1`, for which the inhibition was inactive: -5.55%.

For `CCOc1ncccc1C(=O)NCC1(N2CCOCC2)CCCCC1`, the inhibition is inactive: 9.01%.

As to `CN(C)c1ccc(C(=O)NCC2(N3CCCCC3)CCCCC2)cc1`, the inhibition was inactive: -0.3%.

For `O=C(NCC1(N2CCCCC2)CCCCC1)c1ccco1`, the inhibition was inactive: -12.1%.

Consider `CCN1CCC(Nc2cccc(F)c2)CC1`, for which the inhibition was inactive: -5.78%.

As for `Fc1ccccc1NC1CCN(Cc2ccccc2)CC1`, the inhibition is inactive: -0.92%.

As for `Cc1ccc(C(=O)NCC2(N3CCCCC3)CCCCC2)o1`, the inhibition is inactive: 11.8%.

For the molecule `COc1cc(OC)cc(C(=O)NCC2(N3CCCCC3)CCCCC2)c1`, the inhibition is inactive: -7.11%.

`CN(C)C1(CNC(=O)c2cccc(C#N)c2)CCCCC1`: the inhibition is inactive: 3.65%.

Consider `CCCN1CCC(Nc2cc(OC)cc(OC)c2)CC1`, for which the inhibition was inactive: -0.4%.

As to `c1ccc(CN2CCC(Nc3ccccc3)CC2)cc1`, the inhibition is inactive: 8.41%.

Consider `N#Cc1ccc(C(=O)NCC2(N3CCCCC3)CCCCC2)cc1`, for which the inhibition was inactive: 3.38%.

Consider `CC(C)(C)OC(=O)N1CCC(N(C(=O)c2ccccc2)c2ccc(Cl)cc2)CC1`, for which the inhibition is inactive: -6.52%.

For the molecule `O=C(OC1CN2CCC1CC2)C1c2ccccc2C=Cc2ccccc21` (stereo not drawn), the inhibition was inactive: -3.01%.

In the case of `CCc1cc(C(=O)NCC2(N3CCCCC3)CCCCC2)sc1C`, the inhibition was inactive: -5.1%.

Take `CCOC(=O)N1CCC(Nc2ccc(C)cc2)CC1`: the inhibition was inactive: 1.17%.

Take `N/C(=N\O)c1c(N)no[n+]1[O-]`: the inhibition was inactive: -4.56%.

With `COc1ccc(C(=O)NCC2(N3CCOCC3)CCCCC2)cc1OC`, the inhibition was inactive: 8.3%.

Take `COc1cc(C(=O)NCC2(N3CCOCC3)CCCCC2)cc(OC)c1C`: the inhibition was inactive: 8.7%.

Consider `O=C(NCC1(N2CCOCC2)CCCCC1)c1cc(Br)ccc1Cl`, for which the inhibition is inactive: -0.63%.

Regarding `O=C(NCC1(N2CCCCC2)CCCCC1)c1cncc(Br)c1`, the inhibition was inactive: -6.67%.

As for `CN1CCC(Nc2cccc(F)c2)CC1`, the inhibition is inactive: -8.19%.

Take `O=C(NCC1(N2CCOCC2)CCCCC1)c1cc(F)c(F)cc1Cl`: the inhibition is inactive: -3.59%.

On to `COc1cc(OC)c(C(=O)NCC2(N(C)C)CCCCC2)cc1OC`, for which the inhibition was inactive: 11.9%.

On to `CC(C)c1ccc(NC2CCN(C(=O)OC(C)(C)C)CC2)cc1`, for which the inhibition was inactive: 4.49%.

With `CN(C)c1cccc(C(=O)NCC2(N3CCCCC3)CCCCC2)c1`, the inhibition was inactive: 4.38%.

For the molecule `COc1ccc(CN(CCCl)CCCl)cc1Cl`, the inhibition is inactive: -3.01%.

As for `COc1cc(C(=O)NCC2(N3CCCCC3)CCCCC2)ccc1OC(F)F`, the inhibition was inactive: -14.2%.

As for `O=C(NCC1(N2CCOCC2)CCCCC1)c1cc(=O)[nH]c2ccccc12`, the inhibition was inactive: -11.2%.

As to `CN1CCN(CCOC(=O)C(O)(c2ccccc2)c2ccccc2)CC1`, the inhibition is inactive: -3.92%.

`COc1ccc(NC2CCN(C(=O)OC(C)(C)C)CC2)cc1`: the inhibition was inactive: -6.53%.

Turning to `O=C(NCC1(N2CCCCC2)CCCCC1)c1cccc(C(F)(F)F)c1`, the inhibition was inactive: -17%.

For the molecule `N#CC1(Nc2ccccc2)CCN(CCc2ccccc2)CC1`, the inhibition is inactive: -0.29%.

Regarding `CCN1CCC(Nc2ccc(Cl)cc2)CC1`, the inhibition was inactive: -1.17%.

`O=C(NCC1(N2CCCCC2)CCCCC1)c1cccc([N+](=O)[O-])c1`: the inhibition was inactive: -0.48%.

In the case of `O=C(NCC1(N2CCCCC2)CCCCC1)c1ccc(OC(F)F)cc1`, the inhibition is inactive: 0.85%.

Take `Cc1ccc(OCC(C)C)c(CN(CCCl)CCCl)c1`: the inhibition was inactive: 7.42%.

As to `CCOC(=O)N1CCC(Nc2cccc(C)c2)CC1`, the inhibition is inactive: 3.33%.

`COc1ccc(NC2CCN(CCc3ccccc3)CC2)c(OC)c1`: the inhibition is inactive: 4.46%.

Regarding `O=C(NCC1(N2CCCCC2)CCCCC1)c1ccc(F)cc1`, the inhibition was inactive: 4.07%.

Regarding `CCOc1ccc(C)cc1CN(CCCl)CCCl`, the inhibition was inactive: 4.62%.

Turning to `COc1ccc(Cl)cc1C(=O)NCC1(N2CCOCC2)CCCCC1`, the inhibition was inactive: 6.18%.

As for `O=C(OC1CN2CCC1CC2)C1c2ccccc2Oc2ccccc21` (stereo not drawn), the inhibition is inactive: -1.14%.

Consider `N#CC1(Nc2ccccc2)CCN(Cc2ccccc2)CC1`, for which the inhibition is inactive: 3.5%.

For the molecule `O=C(NCC1(N2CCCCC2)CCCCC1)c1ccc(Cl)s1`, the inhibition is inactive: -1.83%.

As to `CCOC(=O)N1CCC(Nc2ccc(OC)cc2)CC1`, the inhibition is inactive: -8.71%.

As for `Cc1cc(C)cc(N(C(=O)c2ccccc2)C2CCN(C(=O)OC(C)(C)C)CC2)c1`, the inhibition was inactive: -18.7%.

For the molecule `O=C(NCC1(N2CCCCC2)CCCCC1)c1ccc(Cl)nc1`, the inhibition was inactive: -15.1%.

Consider `O=C(NCC1(N2CCOCC2)CCCCC1)c1cc2ccccc2o1`, for which the inhibition was inactive: -8.06%.

Take `CSc1ccccc1C(=O)NCC1(N2CCCCC2)CCCCC1`: the inhibition is inactive: -7.19%.

In the case of `COc1ccc(C(=O)NCC2(N3CCCCC3)CCCCC2)c(OC)c1OC`, the inhibition was inactive: -2.21%.

With `CC(C)(C)OC(=O)N1CCC(N(C(=O)c2ccccc2)c2ccc(F)cc2)CC1`, the inhibition is inactive: -0.72%.

Take `COc1ccc(C(=O)NCC2(N3CCCCC3)CCCCC2)cc1`: the inhibition is inactive: 4.47%.

Consider `O=C(NCC1(N2CCCCC2)CCCCC1)c1cccs1`, for which the inhibition was inactive: 2.83%.

For the molecule `O=C(NCC1(N2CCCCC2)CCCCC1)c1ccc(=O)[nH]c1`, the inhibition was inactive: 0.1%.
